Literature values, collected in patent US20220313828A1, “Use of low-molecular glycosidically bound terminal galactosides and fucosides for bonding to toxins that act as galectins in the treatment of intoxications, in particular ricin intoxications” (published 2022).

Columns and labels:
ricin = ricin (Ricinus communis, UniProt P02879); conditions: reference (1)
human macrophage cells = human macrophage cells in vitro, reference (2)

Row | Compound | effect on ricin intoxication (ricin) | effect on toxic effect of ricin (human macrophage cells)
1 | OC[C@H]1O[C@@H](O[C@H]2[C@H](O)[C@@H](O)C(O)O[C@@H]2CO)[C@H](O)[C@@H](O)[C@H]1O (some centres unmarked) | reduce a ricin intoxication | 
2 | Epigallocatechin gallate |  | inhibits the toxic effect
